Anti-infective test results gathered from many reports (values: NIAID ChemDB through PubChem).

All rows: growth or infection tests; agent: Candida albicans; endpoint: MIC90

Blank or dashed fields: not listed here. MIC50, MIC90 and the like: level of inhibition, or share of isolates inhibited. Lines come from different laboratories, so protocols vary.

compound	strain	method	setting	value
CCOC(=O)c1ccccc1S(=O)(=O)NC(=O)Nc1nc(Br)cc(OC)n1	-	broth dilution	-	6.25 µM
CO/N=C1\C2CCCC1(C)C(c1cccc(OC)c1)NC2c1cccc(OC)c1	-	-	-	>128 µg/mL
C=C(C)CN1C[C@H](OC[C@@]23C[C@@H]4[C@H](C)CC[C@H]4[C@@]4(C=O)C[C@@H]2CC(C(C)C)[C@@]34C(=O)O)O[C@H](C)C1	16 isolates	-	-	0.008 µg/mL
CC[C@@H]([C@H](C)O)n1ncn(-c2ccc(N3CCN(c4ccc(OC[C@@H]5CO[C@@](Cn6cncn6)(c6ccc(F)cc6F)C5)cc4)CC3)cc2)c1=O	166 isolates	-	-	0.25 µg/mL
CCCCCOc1ccc(-c2ccc(-c3ccc(C(=O)N[C@H]4C[C@@H](O)[C@@H](O)NC(=O)[C@@H]5[C@@H](O)[C@@H](C)CN5C(=O)[C@H]([C@H](C)O)NC(=O)[C@H]([C@H](O)[C@@H](O)c5ccc(O)cc5)NC(=O)[C@@H]5C[C@@H](O)CN5C(=O)[C@H]([C@H](C)O)NC4=O)cc3)cc2)cc1	99 isolates	-	-	0.08 µg/mL
OC[C@H]1CO[C@](Cn2ccnc2)(c2ccc(-c3ccccc3)cc2)O1	44 strains	-	-	128 µg/mL
CC[C@@H]([C@H](C)O)n1ncn(-c2ccc(N3CCN(c4ccc(OC[C@@H]5CO[C@@](Cn6cncn6)(c6ccc(F)cc6F)C5)cc4)CC3)cc2)c1=O	84 isolates	-	-	0.25 µg/mL
CCC(C)CC(C)CCCCCCCCC(=O)N[C@H]1C[C@@H](O)[C@H](NCCN)NC(=O)[C@@H]2[C@@H](O)CCN2C(=O)[C@H]([C@H](O)CCN)NC(=O)[C@H]([C@H](O)[C@@H](O)c2ccc(O)cc2)NC(=O)[C@@H]2C[C@@H](O)CN2C(=O)[C@H]([C@@H](C)O)NC1=O	40 isolates	-	-	0.5 µg/mL
CCC(C)CC(C)CCCCCCCCC(=O)N[C@H]1C[C@@H](O)[C@H](NCCN)NC(=O)[C@@H]2[C@@H](O)CCN2C(=O)[C@H]([C@H](O)CCN)NC(=O)[C@H]([C@H](O)[C@@H](O)c2ccc(O)cc2)NC(=O)[C@@H]2C[C@@H](O)CN2C(=O)[C@H]([C@@H](C)O)NC1=O	10 strains (fluconazole-resistant)	-	-	1 µg/mL
CC(C)C(CCC(C)C1CCC2C3CC=C4C[C@@H](O)CCC4(C)C3CCC12C)NS(=O)(=O)O	IFO. 1385	-	-	0.78 µg/mL
COc1ccc(CN2C[C@H](OC[C@@]34C[C@@H]5[C@H](C)CC[C@H]5[C@@]5(C=O)C[C@@H]3CC(C(C)C)[C@@]45C(=O)O)O[C@H](C)C2)cc1	16 isolates	-	-	≤0.001 µg/mL
CC[C@@H]([C@H](C)O)n1ncn(-c2ccc(N3CCN(c4ccc(OC[C@@H]5CO[C@@](Cn6cncn6)(c6ccc(F)cc6F)C5)cc4)CC3)cc2)c1=O	-	broth dilution	-	0.5 µg/mL
CC(=O)N1CCN(c2ccc(OC[C@H]3CO[C@](Cn4ccnc4)(c4ccc(-c5ccccc5)cc4)O3)cc2)CC1	44 strains	-	-	>256 µg/mL
OC(Cn1cncn1)(Cn1cncn1)c1ccc(F)cc1F	Isolate M27-T-micro	-	24 h	25 µg/mL
Nc1ncccc1-c1cc(Cc2ccc(COc3ccccn3)cc2)no1	-	broth dilution	-	0.06 µg/mL
CCS(=O)(=O)C(F)(F)C(O)(Cn1cncn1)c1ccc(F)cc1F	6 strains (fluconazole-resistant)	-	-	>16 µg/mL
O=[N+]([O-])/C(Br)=C\c1ccc(Br)o1	138 isolates	-	-	2 µg/mL
COc1ccc(CC(c2ccc(OC)cc2)n2cnnc2)cc1	28 strains	-	-	>256 µg/mL
CCC(C)n1ncn(-c2ccc(N3CCN(c4ccc(OC[C@H]5CO[C@](Cn6cncn6)(c6ccc(Cl)cc6Cl)O5)cc4)CC3)cc2)c1=O	131 isolates	-	-	0.25 µg/mL
CC(=O)N1CCN(c2ccc(OCC3COC(Cn4ccnc4)(c4ccc(-c5ccccc5)cc4)O3)cc2)CC1	44 strains	-	-	128 µg/mL
C[C@H]1[C@H](O)[C@@H](C)/C=C/C=C/C=C/C=C/C=C/C=C/C=C/[C@H](O[C@@H]2O[C@H](C)[C@@H](O)[C@H](N)[C@@H]2O)C[C@@H]2O[C@](O)(C[C@@H](O)C[C@@H](O)CC[C@H](O)[C@@H](O)C[C@@H](O)CC(=O)O[C@H]1C)C[C@H](O)[C@H]2C(=O)O	13 strains (fluconazole-resistant)	-	-	1 µg/mL
C[C@H]1[C@H](O)[C@@H](C)/C=C/C=C/C=C/C=C/C=C/C=C/C=C/[C@H](O[C@@H]2O[C@H](C)[C@@H](O)[C@H](N)[C@@H]2O)C[C@@H]2O[C@](O)(C[C@@H](O)C[C@@H](O)CC[C@H](O)[C@@H](O)C[C@@H](O)CC(=O)O[C@H]1C)C[C@H](O)[C@H]2C(=O)O	166 isolates	-	-	1 µg/mL
COc1ccc(C(Cc2ccc(N)cc2)n2ccnc2)cc1	34 strains	-	-	8 µg/mL
OC(Cn1cncn1)(Cn1cncn1)c1ccc(F)cc1F	10 strains	-	-	0.82 µg/mL
C=C(CF)CN1C[C@H](OC[C@@]23C[C@@H]4[C@H](C)CC[C@H]4[C@@]4(C=O)C[C@@H]2CC(C(C)C)[C@@]34C(=O)O)O[C@H](C)C1	16 isolates/fluconazole resistant	-	-	0.015 µg/mL
CC[C@@H]([C@H](C)O)n1ncn(-c2ccc(N3CCN(c4ccc(OC[C@@H]5CO[C@@](Cn6cncn6)(c6ccc(F)cc6F)C5)cc4)CC3)cc2)c1=O	23 strains	-	-	0.125 µg/mL
COc1ccc(C(Cc2ccc(F)cc2)n2ccnc2)cc1	34 strains	-	-	64 µg/mL
Nc1ncccc1-c1cc(Cc2ccc(COc3ccccn3)cc2)no1	-	broth dilution	-	<0.008 µg/mL
C=CCc1ccc(OC)c(OC)c1	3048	turbidity	-	350 µg/mL
CC(C)C(N)CCC(C)C1CC[C@@]2(C)C3=C(CCC12C)C1(C)CC[C@H](O)C(C)(C)C1CC3	A13803	-	-	100 µg/mL
COc1ccc(C(Cc2ccccc2N)n2ccnc2)cc1	34 strains	-	-	128 µg/mL
CCCCCCCCOc1ccc(-c2ccc(C(=O)NC3CC(NCCN)CNC(=O)[C@@H]4[C@@H](O)[C@@H](C)CN4C(=O)[C@@H](CO)NC(=O)[C@H]([C@H](O)Cc4ccccc4)NC(=O)[C@@H]4C[C@@H](O)CN4C(=O)[C@H]([C@@H](C)O)NC3=O)cc2)cc1	33 isolates fluconazole-resistant	-	-	0.5 µg/mL
CC(C)C(N)CCC(C)C1CCC2C3CC=C4C[C@@H](O)CCC4(C)C3CCC12C	A13803	-	-	0.78 µg/mL
COc1ccc(C(C(Cc2ccc(Cl)cc2Cl)c2ccc(Cl)cc2)n2ccnc2)cc1	28 strains	-	-	16 µg/mL
C=CCSS(=O)CC=C	Clinical Isolate 3064	broth dilution	-	3.13 µg/mL
Nc1[nH]c(=O)ncc1F	Fluconazole-resistant	-	-	2 µg/mL
COc1ccc(C(O)Cc2ccc(Cl)cc2)cc1	28 strains	-	-	128 µg/mL
C[C@@H](c1ncncc1F)[C@](O)(Cn1cncn1)c1ccc(F)cc1F	-	broth dilution	-	<0.004 µg/mL
CCC(C)n1ncn(-c2ccc(N3CCN(c4ccc(OC[C@H]5CO[C@](Cn6cncn6)(c6ccc(Cl)cc6Cl)O5)cc4)CC3)cc2)c1=O	17 isolates fluconazole-susceptible	-	-	0.12 µg/mL
CCC(C)CC(C)CCCCCCCCC(=O)N[C@H]1C[C@@H](O)[C@H](NCCN)NC(=O)[C@@H]2[C@@H](O)CCN2C(=O)[C@H]([C@H](O)CCN)NC(=O)[C@H]([C@H](O)[C@@H](O)c2ccc(O)cc2)NC(=O)[C@@H]2C[C@@H](O)CN2C(=O)[C@H]([C@@H](C)O)NC1=O	40 isolates azole-susceptible	-	-	0.4 µg/mL
C[C@@H](c1nc(-c2ccc(C#N)cc2)cs1)[C@](O)(Cn1cnnc1)c1ccc(F)cc1F	34 isolates	-	-	0.03 µg/mL
COc1ccc(CC(c2ccc(OC)cc2)n2ccnc2)cc1	28 strains	-	-	32 µg/mL
C[C@@H](c1ncncc1F)[C@](O)(Cn1cncn1)c1ccc(F)cc1F	32 strains	-	-	0.5 µg/mL
COc1ccc(C(Cc2ccc(Cl)cc2)n2cncn2)cc1	28 strains	-	-	128 µg/mL
CC(=O)OCC1C=C(c2ccc(Br)cc2)C(=O)O1	9 isolates fluconazole-resistant	-	-	2 µg/mL
COc1ccc(C(Cc2ccccc2-n2cccc2)n2ccnc2)cc1	34 strains	-	-	64 µg/mL
CCC(C)n1ncn(-c2ccc(N3CCN(c4ccc(OC[C@H]5CO[C@](Cn6cncn6)(c6ccc(Cl)cc6Cl)O5)cc4)CC3)cc2)c1=O	ATCC 90028	-	-	0.091 µg/mL
CCC(c1ccc(OC)cc1)C(c1ccc(OC)cc1)n1cncn1	28 strains	-	-	>256 µg/mL
OC[C@@H]1CO[C@](Cn2ccnc2)(c2ccc(-c3ccccc3)cc2)O1	44 strains	-	-	>256 µg/mL
CCC(C)CC(C)CCCCCCCCC(=O)N[C@H]1C[C@@H](O)[C@H](NCCN)NC(=O)[C@@H]2[C@@H](O)CCN2C(=O)[C@H]([C@H](O)CCN)NC(=O)[C@H]([C@H](O)[C@@H](O)c2ccc(O)cc2)NC(=O)[C@@H]2C[C@@H](O)CN2C(=O)[C@H]([C@@H](C)O)NC1=O	15 strains	-	-	0.25 µg/mL
Clc1cc(Cl)c2c(c1)CCc1ccccc1C2n1ccnc1	12 isolates	-	-	0.03 µg/mL
CC(=O)N1CCN(c2ccc(OC[C@H]3CO[C@](Cn4ccnc4)(c4ccc(Cl)cc4Cl)O3)cc2)CC1	16 strains	-	-	8 µg/mL
CCC(c1ccc(Cl)cc1)C(c1ccc(OC)cc1)n1ccnc1	28 strains	-	-	32 µg/mL
CC[C@@H]([C@H](C)O)n1ncn(-c2ccc(N3CCN(c4ccc(OC[C@@H]5CO[C@@](Cn6cncn6)(c6ccc(F)cc6F)C5)cc4)CC3)cc2)c1=O	1992 isolates	-	-	0.06 µg/mL
CCC(c1ccc(OC)cc1)C(c1ccc(OC)cc1)n1ccnc1	28 strains	-	-	256 µg/mL
CCC(C)CC(C)CCCCCCCCC(=O)N[C@H]1C[C@@H](O)[C@H](NCCN)NC(=O)[C@@H]2[C@@H](O)CCN2C(=O)[C@H]([C@H](O)CCN)NC(=O)[C@H]([C@H](O)[C@@H](O)c2ccc(O)cc2)NC(=O)[C@@H]2C[C@@H](O)CN2C(=O)[C@H]([C@@H](C)O)NC1=O	2453 strains	-	-	0.25 µg/mL
Clc1ccccc1C(c1ccccc1)(c1ccccc1)n1ccnc1	16 strains	-	-	2 µg/mL
CC(=O)OCC1C=C(c2cccc(Cl)c2)C(=O)O1	25 isolates	-	-	4 µg/mL
CNC(CCC(C)C1CC[C@@]2(C)C3=C(CCC12C)C1(C)CC[C@H](OC(C)=O)C(C)(C)C1CC3)C(C)C	A.10231	-	-	100 µg/mL
C[C@@H](SC1COC(/C=C/C=C/c2ccc(C#N)cc2F)OC1)[C@](O)(Cn1cncn1)c1ccc(F)cc1F	25 isolates fluconazole-susceptible	-	-	0.125 µg/mL
CC[C@@H](c1ccc(Cl)cc1)[C@@H](c1ccc(OC)cc1)n1cnnc1	28 strains	-	-	>256 µg/mL
C[C@@H](c1ncncc1F)[C@](O)(Cn1cncn1)c1ccc(F)cc1F	100 isolates	-	-	0.5 µg/mL

Again, the opening 8 rows:

compound | strain | method | setting | value
CCOC(=O)c1ccccc1S(=O)(=O)NC(=O)Nc1nc(Br)cc(OC)n1 | - | broth dilution | - | 6.25 µM
CO/N=C1\C2CCCC1(C)C(c1cccc(OC)c1)NC2c1cccc(OC)c1 | - | - | - | >128 µg/mL
C=C(C)CN1C[C@H](OC[C@@]23C[C@@H]4[C@H](C)CC[C@H]4[C@@]4(C=O)C[C@@H]2CC(C(C)C)[C@@]34C(=O)O)O[C@H](C)C1 | 16 isolates | - | - | 0.008 µg/mL
CC[C@@H]([C@H](C)O)n1ncn(-c2ccc(N3CCN(c4ccc(OC[C@@H]5CO[C@@](Cn6cncn6)(c6ccc(F)cc6F)C5)cc4)CC3)cc2)c1=O | 166 isolates | - | - | 0.25 µg/mL
CCCCCOc1ccc(-c2ccc(-c3ccc(C(=O)N[C@H]4C[C@@H](O)[C@@H](O)NC(=O)[C@@H]5[C@@H](O)[C@@H](C)CN5C(=O)[C@H]([C@H](C)O)NC(=O)[C@H]([C@H](O)[C@@H](O)c5ccc(O)cc5)NC(=O)[C@@H]5C[C@@H](O)CN5C(=O)[C@H]([C@H](C)O)NC4=O)cc3)cc2)cc1 | 99 isolates | - | - | 0.08 µg/mL
OC[C@H]1CO[C@](Cn2ccnc2)(c2ccc(-c3ccccc3)cc2)O1 | 44 strains | - | - | 128 µg/mL
CC[C@@H]([C@H](C)O)n1ncn(-c2ccc(N3CCN(c4ccc(OC[C@@H]5CO[C@@](Cn6cncn6)(c6ccc(F)cc6F)C5)cc4)CC3)cc2)c1=O | 84 isolates | - | - | 0.25 µg/mL
CCC(C)CC(C)CCCCCCCCC(=O)N[C@H]1C[C@@H](O)[C@H](NCCN)NC(=O)[C@@H]2[C@@H](O)CCN2C(=O)[C@H]([C@H](O)CCN)NC(=O)[C@H]([C@H](O)[C@@H](O)c2ccc(O)cc2)NC(=O)[C@@H]2C[C@@H](O)CN2C(=O)[C@H]([C@@H](C)O)NC1=O | 40 isolates | - | - | 0.5 µg/mL